# In the supplement of paper PMC9931576:
# Human monoclonal antibodies against the spike receptor-binding domain (heavy:light variable regions). IC50 against pseudoviruses bearing the spike of naturally observed variants; lower = stronger; >10 µg/ml means not reached at the top dose. No active / inactive call. The stated detection limit is 0.0005 µg/ml; values near or below 0.001 µg/ml lie at the floor of the assay.
# B1: BD56-1706 (protein)
# chain 1: QVQLVQSGAEVKKPGASVKVSCKASGYTFTGYSLNWVRQAPGQGLEWMGWMNPNSGGSNSAQKFQGRVTMTRDTSISTAYMELSRLTSDDTAVYYCARESCSGTSCSDYWGQGTRVTVSS
# chain 2: SYVLTQPPSVSVAPGQTARITCGGDNIGSKSVHWYQQKPGQAPVLVVYDDSDRPSGIPERFSGSNSGNSATLTISRVEAGDEADYYCQVWDGSSDDFYIFGTGTKVTVL
# B2: COV2-2677 (protein)
# chain 1: QLQLQESGPGLVKPSETLSLTCTVSGGSISSSSYYWGWIRQPPGKGLEWIGSMYYSGSTYYNPSLKSRVTISVDTSKNQFSLKLSSVTAADTAVYYCARLLWLRGHFDYWGQGTLVTVSS
# chain 2: NFMLTQPHSVSESPGKTVTISCTGSSGSIASNYVQWYQQRPGSAPTTVIYEDNQRPSGVPDRFSGSIDSSSNSASLTISGLKTEDEADYYCQSYDSSNYWVFGGGTKLTVL
# B3: BD56-1722 (protein)
# chain 1: QVQLVQSGAEVKKPGSSVKVSCRASGGTFSSYTLSWVRQAPGQGLEWMGRILPILGIATYVHKFQGRVTITADKSTSTAYMELSSLRSEDTAVYYCAREDCISTTCHGPKWFDPWGQGTLVTVSS
# chain 2: QSVLTQPPSVSGAPGQRVTISCTGTNSNIGAGYDVHWYQQLPGTAPKLLIFVYSNRPSGVPDRFSGSKSGTSASLAITGLQAEDEADYYCQSYDSSLSEDVFGTGTKVTVL
# B4: BD56-1719 (protein)
# chain 1: EVQLVESGGGLVQPGRSLRLSCAASGFSFDDNGMHWVRQAPGKGLEWVSGINWNSDSVAYADSVKGRFTISRDNAKNSLFLQMNSLRPDDTAWYYCVKDSRAGFGDYFDFWGQGTLVTVSS
# chain 2: SYVLTQPPSVSVAPGKTARITCGGNNIGSKSVHWYRQKPGQAPVLVISYDTDRPSGIPERFSGSNSGNTATLTISRVEAGDEADYYCQVWGGSSDHPYVFGTGTKVTVL
# B5: BD56-1725 (protein)
# chain 1: QVQLVQSGAEVKKPGSSVKVSCEASGGTFSSYTFSWVRQAPGQGLEWMGRIIPILGIANYAQNFQGRVTITADKSTSTAYVELSSLRSEDTAIYYCARDIGYSGSGSNWYFDLWGRGTLVTVSS
# chain 2: QSVLTQPPSVSGAPGQRVTISCTGSSSNIGAGYDVHWYQQLPGTAPKLLIYINQNRPSGVPDRFSGSKSGTSASLAITGLQADDEADYYCQSYDSSLSGSVFGGGTKLTVL
# B6: BD56-1723 (protein)
# chain 1: EVQLVESGGALVQAGGSLRLSCGASGYIFSSYWMTWVRQAPGKGLEWVANIKQDGSGMYYADSVKGRFTISRDNAKNSLFLQMNSLRVEDTAVYYCARDPVDGYIDSWGRGTLVTVSS
# chain 2: EIVMTQSPATLSVSPGERVTLSCRASQYISSSLAWYQQKPGQAPRLLISGASTRAATIPARFSGGGSGTEFTLTISSLQSEDFAVYYCQQYYSWPPWTFGQGTKVEIK
# B7: BD56-1711 (protein)
# chain 1: QVQLVQSGAEVKKPGSSVKVSCKASGGTFTSYTINWVRQAPGQGLEWMGSIIPILGITNYAQKFQGRVTITADKTTSTASMELSTLRSDDTAVYYCARGRGYSGYGAAMYCDYWGQGTLVTVSS
# chain 2: QSVLTQPPSVSGAPGQRVTISCTGTNSNIGAGYDVHWYQQLPGTAPKLLIYGNTNRPSGVPDRFSGSKSGTSASLAITGLQAEDEADYYCQSYDSGLSAALVFGTGTQVTVL
# B8: BD56-1713 (protein)
# chain 1: EVQLVESGGGLAQPGGSLRLSCAASGFTFSRYDMHWVRQSTAKGLEWVSAIGTTGDTYYLDSVKGRFTISRENAKNSLYLQMNSLRVGDTAVYYCARVPIYDSQTYYEARDSWYFDLWGRGTLVTVSS
# chain 2: DIQMTQSPSSLSASVGDRVTITCRASQTIRTYLNWYQQKPGKAPKLLIYAASSLQTGVPSRFSGSGSGTDFTLTITSLQPEDFATYYCQQSYVMPPITFGQGTKVEIK
# B9: BD56-1726 (protein)
# chain 1: EVQLVESGGDLVQPGGSLRLSCSASGFTFSNYAMYWVRQAPGKRLEYVSAISSDGGSTYYSDSVKGRFTISRDNSKNTLYLQMSSLRTEDTAVYYCVKDLGDILTVDVFDIWGQGTMVTVAS
# chain 2: DIQMTQSPSSLSASVGDRVTITCRASQIISRYLNWYQQKPGKAPKLLIYTASSLQSGVPSRFSGSGSGTEFTLTISSLQPEDFATYYCQQSYSTPGTFGQGTKVEIK
# B10: BD56-1728 (protein)
# chain 1: QVQLVQSGAEGKKPGSSVKVSCKASGDTFRSYAISWVRQAPGQGLEWMGKIIPPLGVANYAQRFQGRVTITADRSTHTAYMELSRLRSEDTAIYFCARDESRSCSSTTCFDYWGQGTLVTVSS
# chain 2: QSVLTQPPSVSGAPGQRVTISCTGDNSNIGAGYDIHWYQWLPGTAPKLLIYNNNIRPSGVPDRFSGSKSGTSASLAIAGLQAEDEADYFCQSYDSSLSDVVFGGGTKLTVL
# B11: BD56-1709 (protein)
# chain 1: EVQLVESGGRLVQPGRSLRLSCAASGFTFEDYAMHWVRQAPGKGLEWVSGISWNGGVIGYADSVKGRLIISRDNAKNSLHLHMQSLKTEDTAFYYCAKDMGDYGDLFHYTMDVWGQGTTVTVSS
# chain 2: QSALTQPASVSGSPGQSITISCTGTDSDVGGYNYVSWFQHRPGKAPQLMIYDVSKRPSGVSNRFSASKSGNTASLTISGLQAEDEADYYCSSYTSTSTVLFGGGTKLTVL
# B12: COV2-2103 (protein)
# chain 1: EVQLVESGGGLVQPGGSLRLSCAASGFTFSRHWMTWVRQAPGKGLEWVANIKQDGSEKYYVDSVKGRLTISRDNAKNSLYLQMNSLRAEDTAVYYCARLGFYYGGADYWGQGTLVTVSS
# chain 2: NFMLTQPHSVSESPGKTVTISCTGSSGSIASNYVQWYQQRPGSAPTTVISEDNQRPSGVPDRFSGSIDSSSNSASLTISGLKTEDEADYYCQSYDGINRAWVFGGGTKLTVL
# Assays:
# Assay in all cases: pseudovirus neutralization IC50; higher = weaker neutralization
# [1] = target: SARS-CoV-2 Omicron BA.1 spike pseudovirus
# Description: (§1)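 Single-round VSV luciferase pseudovirus mixed with antibody dilutions for 1 h and put on Huh-7 cells for about a day; IC50 from the dose curve.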
# [2] = target: SARS-CoV-2 Omicron BA.2 spike pseudovirus
# Description: as §1
# [3] = target: SARS-CoV-2 Omicron BA.2.75 spike pseudovirus
# Description: as §1
# [4] = target: SARS-CoV-2 Omicron BA.5 spike pseudovirus
# Description: as §1
# [5] = target: SARS-CoV-2 Omicron BQ.1.1 spike pseudovirus
# Description: as §1
# [6] = target: SARS-CoV-2 Omicron XBB spike pseudovirus
# Description: as §1
# [7] = target: SARS-CoV-2 early D614G spike pseudovirus
# Description: as §1
binder,measurement,setting,value
B1,pseudovirus neutralization IC50,[1],5.78 µg/mL
same,pseudovirus neutralization IC50,[2],2.77 µg/mL
same,pseudovirus neutralization IC50,[3],3.93 µg/mL
same,pseudovirus neutralization IC50,[4],3.01 µg/mL
same,pseudovirus neutralization IC50,[5],> 10 µg/mL
same,pseudovirus neutralization IC50,[6],3.93 µg/mL
same,pseudovirus neutralization IC50,[7],> 10 µg/mL
B2,pseudovirus neutralization IC50,[1],> 10 µg/mL
same,pseudovirus neutralization IC50,[2],> 10 µg/mL
same,pseudovirus neutralization IC50,[3],> 10 µg/mL
same,pseudovirus neutralization IC50,[4],> 10 µg/mL
same,pseudovirus neutralization IC50,[5],> 10 µg/mL
same,pseudovirus neutralization IC50,[6],> 10 µg/mL
same,pseudovirus neutralization IC50,[7],> 10 µg/mL
B3,pseudovirus neutralization IC50,[1],0.0174 µg/mL
same,pseudovirus neutralization IC50,[2],0.00959 µg/mL
same,pseudovirus neutralization IC50,[3],0.0321 µg/mL
same,pseudovirus neutralization IC50,[4],1.2 µg/mL
same,pseudovirus neutralization IC50,[5],> 10 µg/mL
same,pseudovirus neutralization IC50,[6],1.33 µg/mL
same,pseudovirus neutralization IC50,[7],0.0207 µg/mL
B4,pseudovirus neutralization IC50,[1],> 10 µg/mL
same,pseudovirus neutralization IC50,[2],> 10 µg/mL
same,pseudovirus neutralization IC50,[3],> 10 µg/mL
same,pseudovirus neutralization IC50,[4],> 10 µg/mL
same,pseudovirus neutralization IC50,[5],> 10 µg/mL
same,pseudovirus neutralization IC50,[6],> 10 µg/mL
same,pseudovirus neutralization IC50,[7],> 10 µg/mL
B5,pseudovirus neutralization IC50,[1],0.0388 µg/mL
same,pseudovirus neutralization IC50,[2],0.014 µg/mL
same,pseudovirus neutralization IC50,[3],0.0492 µg/mL
same,pseudovirus neutralization IC50,[4],6.91 µg/mL
same,pseudovirus neutralization IC50,[5],> 10 µg/mL
same,pseudovirus neutralization IC50,[6],3.81 µg/mL
same,pseudovirus neutralization IC50,[7],0.135 µg/mL
B6,pseudovirus neutralization IC50,[1],> 10 µg/mL
same,pseudovirus neutralization IC50,[2],> 10 µg/mL
same,pseudovirus neutralization IC50,[3],> 10 µg/mL
same,pseudovirus neutralization IC50,[4],> 10 µg/mL
same,pseudovirus neutralization IC50,[5],> 10 µg/mL
same,pseudovirus neutralization IC50,[6],> 10 µg/mL
same,pseudovirus neutralization IC50,[7],> 10 µg/mL
B7,pseudovirus neutralization IC50,[1],0.0208 µg/mL
same,pseudovirus neutralization IC50,[2],0.0157 µg/mL
same,pseudovirus neutralization IC50,[3],0.0468 µg/mL
same,pseudovirus neutralization IC50,[4],2.22 µg/mL
same,pseudovirus neutralization IC50,[5],> 10 µg/mL
same,pseudovirus neutralization IC50,[6],1.59 µg/mL
same,pseudovirus neutralization IC50,[7],0.0443 µg/mL
B8,pseudovirus neutralization IC50,[1],> 10 µg/mL
same,pseudovirus neutralization IC50,[2],> 10 µg/mL
same,pseudovirus neutralization IC50,[3],> 10 µg/mL
same,pseudovirus neutralization IC50,[4],> 10 µg/mL
same,pseudovirus neutralization IC50,[5],> 10 µg/mL
same,pseudovirus neutralization IC50,[6],> 10 µg/mL
same,pseudovirus neutralization IC50,[7],> 10 µg/mL
B9,pseudovirus neutralization IC50,[1],> 10 µg/mL
same,pseudovirus neutralization IC50,[2],> 10 µg/mL
same,pseudovirus neutralization IC50,[3],> 10 µg/mL
same,pseudovirus neutralization IC50,[4],> 10 µg/mL
same,pseudovirus neutralization IC50,[5],> 10 µg/mL
same,pseudovirus neutralization IC50,[6],> 10 µg/mL
same,pseudovirus neutralization IC50,[7],> 10 µg/mL
B10,pseudovirus neutralization IC50,[1],0.0423 µg/mL
same,pseudovirus neutralization IC50,[2],0.0836 µg/mL
same,pseudovirus neutralization IC50,[3],0.147 µg/mL
same,pseudovirus neutralization IC50,[4],> 10 µg/mL
same,pseudovirus neutralization IC50,[5],> 10 µg/mL
same,pseudovirus neutralization IC50,[6],> 10 µg/mL
same,pseudovirus neutralization IC50,[7],0.123 µg/mL
B11,pseudovirus neutralization IC50,[1],0.0385 µg/mL
same,pseudovirus neutralization IC50,[2],0.0161 µg/mL
same,pseudovirus neutralization IC50,[3],0.0498 µg/mL
same,pseudovirus neutralization IC50,[4],1.57 µg/mL
same,pseudovirus neutralization IC50,[5],> 10 µg/mL
same,pseudovirus neutralization IC50,[6],> 10 µg/mL
same,pseudovirus neutralization IC50,[7],0.0277 µg/mL
B12,pseudovirus neutralization IC50,[1],> 10 µg/mL
same,pseudovirus neutralization IC50,[2],> 10 µg/mL
same,pseudovirus neutralization IC50,[3],> 10 µg/mL
same,pseudovirus neutralization IC50,[4],> 10 µg/mL
same,pseudovirus neutralization IC50,[5],> 10 µg/mL
same,pseudovirus neutralization IC50,[6],> 10 µg/mL
same,pseudovirus neutralization IC50,[7],0.584 µg/mL
